This is a selection; strong and weak results do not stand in their true shares. Activity calls are given as the source filed them. Cut-off read from the data, not from the text of the source: active = inhibition above about 27%; inactive = the rest.

Protein sequences, listed by entry. Tags and fused reporters are not part of them. Lines headed by an entry give the natural chain unless they say otherwise; changes in a name come on top.
UniProt P9WQA3: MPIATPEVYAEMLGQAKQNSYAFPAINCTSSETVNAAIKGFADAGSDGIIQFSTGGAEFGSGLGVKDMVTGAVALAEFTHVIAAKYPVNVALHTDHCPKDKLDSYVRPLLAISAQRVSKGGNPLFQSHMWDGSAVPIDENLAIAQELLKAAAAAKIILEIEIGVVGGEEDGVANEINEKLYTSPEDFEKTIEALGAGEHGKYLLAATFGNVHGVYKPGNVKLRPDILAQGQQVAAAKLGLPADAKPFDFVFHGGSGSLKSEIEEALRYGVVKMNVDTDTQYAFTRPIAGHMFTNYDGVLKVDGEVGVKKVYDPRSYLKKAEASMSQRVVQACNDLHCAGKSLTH

In this assay the target is Fructose-bisphosphate aldolase (Mycobacterium tuberculosis (strain ATCC 25618 / H37Rv)) (UniProt P9WQA3). Briefly: M. tuberculosis aldolase activity blockers – biochemical, fluorescence, strain H37Rv, primary screen (AID 588726).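 Note: 0% = vehicle and 100% = reference inhibitor.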 As to conditions: purified M. tuberculosis FBA, fluorescence read-out; at 1 µM; active compounds read high.
Regarding `COP1(=S)c2c(C)nn(CCC#N)c2N=C(c2ccc(F)cc2)N1C` (stereo not drawn), the inhibition (as a rule, the change of the read-out against control, counted positive when it falls) was inactive: -5.07%.
To `COC(=O)C1(C)COP(=O)(N2CCCC2)OC1` (stereo not drawn) belongs inactive: 2.18%; to `O=C(COc1ccccc1)OC1CN2CCC1CC2` (stereo not drawn), inactive: -4.16%.
To `O=C(Nc1ccncc1[N+](=O)[O-])c1ccc([N+](=O)[O-])cc1[N+](=O)[O-]` belongs inactive: 0.17%; to `O=C(O)C(=O)c1ccc(N(CCCl)CCCl)cc1`, inactive: -1.97%.
The result for `CCOC(=O)c1ccc(NC(=O)C(C)(CCl)SC)cc1` (stereo not drawn) reads inactive: 0.47%; that for `O=C(OC1CN2CCC1CC2)c1cccc([N+](=O)[O-])c1` (stereo not drawn), inactive: -2.09%.
With `CSc1ccc(Nc2c([N+](=O)[O-])cc([N+](=O)[O-])cc2[N+](=O)[O-])cc1`, the inhibition is inactive: -9.62%.
The result for `CCC(C)N(CC(C)C)C(=S)SC(NC(C)=O)C(Cl)(Cl)Cl` (stereo not drawn) reads inactive: -6.5%; that for `CC1CCNP(=O)(N(CCCl)CCCl)O1` (stereo not drawn), inactive: 0.03%; that for `CCOC(=O)Nc1ccc([As](=O)(O)O)c(O)c1`, inactive: 0.78%.
To `O=C(O)C(O)c1ccc(N(CCCl)CCCl)cc1` (stereo not drawn) belongs inactive: -0.61%; to `CCCCOc1ccc(C(=O)NCC2(N3CCCCC3)CCCCC2)cc1OC`, inactive: 1.95%.
The result for `Cc1cc(SC(NC(=O)c2ccccc2)C(Cl)(Cl)Cl)nc(C(C)C)n1` (stereo not drawn) reads inactive: 2.77%; that for `COP(=O)(OC)N1CC1c1ccccc1` (stereo not drawn), inactive: 0.14%; that for `CCOC(=O)Nc1cccc([As](=O)(O)O)c1`, inactive: 0.79%.
For `O=[N+]([O-])c1ccc(Nc2ccc(Oc3ccc([N+](=O)[O-])cc3[N+](=O)[O-])cc2)c([N+](=O)[O-])c1`, the inhibition was inactive: -0.78%.
To `O=P(Nc1ccccn1)(c1cccc2ccccc12)c1cccc2ccccc12` belongs inactive: -0.24%; to `Cc1cc(SC(NC=O)C(Cl)(Cl)Cl)ncn1` (stereo not drawn), inactive: -3.23%; to `O=[As](O)(c1ccc(O)cc1)c1ccccc1O`, inactive: -5.7%.
As for `C[As](=O)(O)c1cccc(C(=O)O)c1`, the inhibition is inactive: 0.92%.
On to `O=[N+]([O-])c1ccc(-c2cc([N+](=O)[O-])c(O)c([N+](=O)[O-])c2)cc1`, for which the inhibition was inactive: -12.9%.
On to `COc1cc(C(=O)NCC2(N3CCOCC3)CCCCC2)ccc1OCC(C)C`, for which the inhibition was inactive: 3.84%.
Consider `Cc1ccc2nc3c(c(C)c2c1)CC(C(Cl)Cl)S3` (stereo not drawn), for which the inhibition was inactive: 0.62%.
The result for `Cc1ccc(OP(=O)(Nc2ccc([N+](=O)[O-])cn2)Oc2ccc(C)cc2)cc1` reads inactive: 0.04%; that for `COC(=O)C1(C)COP(=O)(N2CCCCCC2)OC1` (stereo not drawn), inactive: -1.14%; that for `CC(C)c1ccc(OP(=O)(Nc2ccccn2)Oc2ccccc2F)cc1` (stereo not drawn), inactive: 1.63%.
With `ClCCSc1nnc(-c2cccnc2)o1`, the inhibition is inactive: 1.14%.
The result for `CC(C)NC(=O)NP(=O)(Oc1ccccc1)Oc1ccccc1` reads inactive: 6.32%; that for `CCN(CC)C(=S)SC(NC=O)C(Cl)(Cl)Cl` (stereo not drawn), inactive: 2.07%.
In the case of `O=C(OC1CN2CCC1CC2)c1cccc2[nH]cnc12` (stereo not drawn), the inhibition was inactive: 3.12%.
To `O=[N+]([O-])c1cc([N+](=O)[O-])c(-c2ccn[nH]2)s1` belongs inactive: -0.91%; to `O=C(OC1CN2CCC1CC2)C12CC3CC(CC(C3)C1)C2` (stereo not drawn), inactive: 3.12%; to `Cc1cc(=O)[nH]c(N[N+](=O)[O-])n1`, inactive: -2.56%.
Consider `Cc1c2c(nc3ccccc13)SC(C(Cl)Cl)C2` (stereo not drawn), for which the inhibition is inactive: -1.84%.
The result for `COc1ccc2nc(NP(=O)(c3ccccc3)c3ccccc3)sc2c1` reads inactive: -3.42%; that for `COc1cc(I)ccc1[As](=O)(O)O`, inactive: 5.12%.
To `O=P1(N(CCCl)CCCl)Nc2ccccc2N1` belongs inactive: 4.5%.
Take `O=P1(N(CCCl)CCCl)OCCCN1CCCl` (stereo not drawn): the inhibition was inactive: 1.36%.
To `COc1ccc(N/C(=N/P(=O)(N2CCOCC2)N2CCOCC2)N2CCOCC2)cc1` belongs inactive: 0.46%; to `O=[N+]([O-])c1cc(Oc2ccc([N+](=O)[O-])cc2C(F)(F)F)cc([N+](=O)[O-])c1`, inactive: -0.85%.
The result for `O=[As](O)(O)c1cccnc1` reads inactive: -2.28%; that for `COc1cc(C(=O)NCC2(N3CCOCC3)CCCCC2)cc(Cl)c1OC(C)C`, inactive: -4.57%; that for `CS(=O)(=O)c1ccc(Cl)c(NC(=O)COC(=O)C(O)(c2ccccc2)c2ccccc2)c1`, inactive: -2.04%.
With `O=C(OC1CN2CCC1CC2)c1ccc(Cl)cc1` (stereo not drawn), the inhibition was inactive: -1.33%.
The result for `Cc1cccc(OCC(=O)OC2CN3CCC2CC3)c1` (stereo not drawn) reads inactive: 3.8%.
Regarding `O=[As](O)(c1cccc(O)c1)c1cccc(O)c1`, the inhibition was inactive: 0.69%.
As for `CCCOP(=S)(Nc1nc(N)cc(=O)[nH]1)OCCC`, the inhibition is inactive: -0.15%.
Turning to `Cc1ccc(NCCc2c([N+](=O)[O-])cc([N+](=O)[O-])cc2[N+](=O)[O-])cc1`, the inhibition is inactive: -1.5%.
To `Nc1cccc2c([As](=O)(O)O)cccc12` belongs inactive: 7.61%.
To `COc1cc(C2NCCC3(OCCO3)C2(C)C)cc(OC)c1OC` (stereo not drawn) belongs inactive: 6.12%.
The result for `CCOP(=O)(Nc1cccc2ccccc12)OCC` reads inactive: 9.91%.
Consider `CS(=O)(=O)c1cc([N+](=O)[O-])c2no[n+]([O-])c2c1`, for which the inhibition was inactive: -11.6%.
Consider `CCOP1(=S)c2c(C)nn(CCC#N)c2N=C(c2ccccc2F)N1C` (stereo not drawn), for which the inhibition was inactive: 0.02%.
In the case of `O=P(Nc1nccs1)(Oc1ccccc1)Oc1ccccc1`, the inhibition is inactive: -0.74%.
Consider `O=P(Nc1nccs1)(c1ccccc1)c1nc2ccccc2s1` (stereo not drawn), for which the inhibition is inactive: -4.56%.
To `Nc1ccccc1[As](=O)(O)c1ccccc1` belongs inactive: 0.33%.
On to `O=C(O)COc1ccc([As](=O)(O)O)cc1[N+](=O)[O-]`, for which the inhibition was inactive: -2.79%.
Take `NC(=O)Nc1ccc([As](=O)(O)O)cc1`: the inhibition was inactive: -2.46%.
Turning to `O=[N+]([O-])c1ccc2c(c1)nnn2O`, the inhibition was inactive: 1.54%.
The result for `CN(C)C(=O)c1cc([N+](=O)[O-])cc2c1-c1c(cc([N+](=O)[O-])cc1[N+](=O)[O-])C2=O` reads inactive: -6.06%; that for `CN(C(=O)Cc1ccc(Cl)c(Cl)c1)[C@H]1CC[C@@]2(CCCO2)C[C@@H]1N1CCCC1`, inactive: 1.28%.
Consider `N#CCCN(C(=O)COC(=O)C(O)(c1ccccc1)c1ccccc1)c1ccc(F)cc1`, for which the inhibition was inactive: -1.81%.

Values taken from PubChem BioAssay AID588726 (The Scripps Research Institute Molecular Screening Center, 2011).
